A mixed list of measured activities; the numbers were collected in NIAID ChemDB.

Shared fields: whole-cell or culture tests; species: HIV-2; measure: EC50

ECn: concentration that inhibits the pathogen or its effect by n%.

smiles	cells	strain or isolate	read by	value
O=C(CCCN1C(=O)c2ccccc2C1=O)NC(=S)NC(CS)C(=O)O	MT-4	ROD	MTT	>90.9 µM
O=C(c1cccc(F)c1)c1ccc2c(c1)sc(=O)n2Cc1ccccc1	CEM	ROD	syncytia	>1.6 µg/mL
Cc1ccc(C)c(CS(=O)(=O)c2cccc[n+]2[O-])c1	CEM	EHO	syncytia	14 µg/mL
O=C1c2ccccc2N(Cc2ccccc2-c2ccccc2)S(=O)(=O)N1Cc1ccccc1	MT-4	ROD	p24	>125 µM
O=C1CCCC(C23CC4CC(C2)CC(N2C(=O)c5ccccc5C2=O)(C4)C3)C1	CEM	ROD	syncytia	>4 µg/mL
CC1=C[C@H](Cn2cnc3c(=O)[nH]cnc32)C[C@@H]1CO	MT-4	ROD	MTT	>100 µg/mL
COC(=O)C(Cc1c[nH]c2ccccc12)NC(=O)CCCN1C(=O)c2ccccc2C1=O	MT-4	ROD	MTT	>29.61 µM
CC(=O)Nc1nc2c(ncn2Cc2cn(COCCO)nn2)c(=O)[nH]1	MT-4	ROD	cytopathic effect	>100 µg/mL
OC[C@H]1O[C@H](c2cc(Cl)c(F)cc2F)C[C@@H]1O	CEM	ROD	syncytia	>250 µM
O=C(c1cccc(F)c1)c1ccc2c(c1)oc(=O)n2CCN1CCOCC1	CEM	ROD	syncytia	>8 µg/mL
C[C@H](Cn1cnc2c(N)ncnc21)OCP(=O)(O)O	CEM	ROD	syncytia	2.5 µM
CC(=O)OCCOCN1c2nc(Cc3ccccc3)[nH]c2C(N)=NS1(=O)=O	CEM	ROD	syncytia	8 µg/mL
NNC(=O)Cc1nc2n(n1)CCCCC2	MT-4	ROD	cytopathic effect	>125 µg/mL
Cc1cn(Cc2cn(COCCO)nn2)c(=O)[nH]c1=O	MT-4	ROD	cytopathic effect	>100 µg/mL
O=C(c1ccccc1)c1ccc2[nH]c(=O)sc2c1	CEM	ROD	syncytia	4.6 µg/mL
C=C1[C@H](CO)[C@H]1Cn1cnc2c(=O)[nH]cnc21				>100 µM
O=c1ccn(C23C=C[C@@H](CO)[C@@H]2C3)c(=O)[nH]1	MT-4	ROD	MTT	>100 µg/mL
CC(O)C(NC(=S)NC(=O)CCCN1C(=O)c2ccccc2C1=O)C(=O)O	MT-4	ROD	MTT	>28.54 µM
Cn1c2ccccc2c2c1cc(C#N)c(=O)n2-c1ccc([N+](=O)[O-])cc1	MT-4		cytopathic effect / MTT	0.25 µM
Cc1ccc(C)c(C(C)S(=O)(=O)c2c(C)ccc[n+]2[O-])c1	CEM	ROD	syncytia	>20 µg/mL
CCn1nc(Cc2n[nH]c(=S)o2)nc1C	MT-4	ROD	cytopathic effect	>63.4 µg/mL
COc1ccc(C)cc1CS(=O)(=O)c1cccc[n+]1[O-]	CEM	EHO	syncytia	44 µg/mL
CC#CCN1c2ccccc2C(=O)N(Cc2ccccc2)S1(=O)=O	MT-4	ROD	p24	>68 µM
O=C1c2cccc([N+](=O)[O-])c2C(=O)N1C1C2CC3CC(C2)CC1C3	CEM	ROD	syncytia	>4 µg/mL
C=C1[C@H](CO)[C@H]1Cn1cnc2ncnc(Cl)c21				>100 µM
CCc1c(C(=O)c2cc(C)cc(C)c2)n(CC2CC=CC2)c(=O)[nH]c1=O	CEM + CEM-SS	ROD	cytopathic effect / XTT	0.16 µM
Cc1cn([C@H]2C=C[C@@H](CO)O2)c(=O)[nH]c1=O	CEM + CEM/0	ROD	syncytia	0.78 µM
C=C1[C@H](CO)[C@H]1Cn1cnc2c(N)ncnc21				>100 µM
O=C1NC[C@@H]2C34CC5CC(CC(C5)[C@H]3[C@]2(O)c2ccccc21)C4	CEM	ROD	syncytia	>20 µg/mL
COC(=O)C(NC(=O)CCCN1C(=O)c2ccccc2C1=O)C(C)C	MT-4	ROD	MTT	>125 µM
Nc1nc(=O)n([C@H]2C=C[C@@H](CO)O2)cc1Cl	MT-4	LAV-2	cytopathic effect / trypan blue	19 µM
CN(C)c1cccc(C(=O)c2ccc3[nH]c(=O)oc3c2)c1	CEM	ROD	syncytia	>8 µg/mL
COc1ccnc2[nH]cc(C(=O)C(=O)N3CCN(C(=O)c4ccccc4)C[C@H]3C)c12				>300 µM
C#CCn1cc(Cl)c(=O)[nH]c1=O	MT-4	ROD	cytopathic effect	>100 µg/mL
O=C1c2ccccc2C(=O)N1C12CC3CC(CC(C3)C1)C2	CEM	ROD	syncytia	>4 µg/mL
COP(=O)(c1cc(C)cc(CCC#N)c1)c1c(C(N)=O)[nH]c2ccc(Cl)c(F)c12	H9	ROD		>1.25 µM
O=C(c1cccc([N+](=O)[O-])c1)c1ccc2c(c1)sc(=O)n2Cc1ccccc1	CEM	ROD	syncytia	>1.6 µg/mL
Cc1nc(CC(=O)NN)nn1C	MT-4	ROD	cytopathic effect	>94.8 µg/mL
O=c1[nH]c(=O)n([C@H]2C=C[C@@H](CO)O2)cc1Cl	MT-4	LAV-2	cytopathic effect / trypan blue	>20 µM
COC(=O)C(NC(=O)CCCN1C(=O)c2ccccc2C1=O)C(C)O	MT-4	ROD	MTT	>37.82 µM
O=C(c1cccc([N+](=O)[O-])c1)c1ccc2[nH]c(=O)sc2c1	CEM	ROD	syncytia	>1.6 µg/mL
COc1ccc(-n2c(Cc3nc4n(n3)CCCC4)n[nH]c2=S)cc1	MT-4	ROD	cytopathic effect	>113 µg/mL
CC(C)CS[C@@H]1C[C@H](n2cnc3c(N)ncnc32)[C@@H](O)[C@H]1O	CEM	ROD	cytopathic effect / syncytia / trypan blue	>50 µg/mL
Cc1ccc(NC2=NS(=O)(=O)NC(Cc3ccccc3)=C2)cc1C	MT-4	ROD	MTT	>177 µM
O=C1c2ccccc2N(Cc2ccc(Cl)cc2)S(=O)(=O)N1Cc1ccc(Cl)cc1	MT-4	ROD	p24	>125 µM
Cn1c(=O)sc2cc(C(=O)c3cccc([N+](=O)[O-])c3)ccc21	CEM	ROD	syncytia	>8 µg/mL
C[C@H](CCC=C(c1cc(Cl)c(O)c(C(=O)O)c1)c1cc(Cl)c(O)c(C(=O)O)c1)[C@H]1CCC2C3C(C[C@H](O)[C@@]21C)[C@@]1(C)CC[C@@H](O)C[C@H]1C[C@H]3O	MT-4	ROD	MTT	67.2 µM
O=c1[nH]c(=O)n(Cc2cn(COCCO)nn2)cc1I	MT-4	ROD	cytopathic effect	>100 µg/mL
N#Cc1ccc(NC2=NS(=O)(=O)NC(Cc3ccccc3)=C2)cc1	MT-4	ROD	MTT	>369 µM
Cc1ccc(C(C)S(=O)(=O)c2c(C)ccc[n+]2[O-])c(C)c1	CEM	ROD	syncytia	>100 µg/mL
O=C1c2ccccc2N(Cc2cccc3ccccc23)S(=O)(=O)N1Cc1ccccc1	CEM + CEM-SS	ROD	p24	>10 µM
O=C1c2ccccc2C(=O)N1CCC12CC3CC(CC(C3)C1)C2	CEM	ROD	syncytia	>4 µg/mL
COc1ccc(NC2=NS(=O)(=O)NC(Cc3ccc4ccccc4c3)=C2)cc1	MT-4	ROD	MTT	>165 µM
C=C1[C@H](CO)[C@H]1Cn1cnc2c(Cl)nc(N)nc21				>100 µM
Cc1cc(C)c(NC2=NS(=O)(=O)NC(Cc3ccc4ccccc4c3)=C2)c(C)c1	MT-4	ROD	MTT	>96 µM
C[C@H](CCC=C(c1cc(Cl)c(O)c(C(=O)O)c1)c1cc(Cl)c(O)c(C(=O)O)c1)[C@H]1CC[C@H]2[C@@H]3CC[C@@H]4CCCC[C@]4(C)[C@H]3CC[C@]12C	MT-4	ROD	MTT	>31.3 µM
CN(C)c1cccc(C(=O)c2ccc3c(c2)sc(=O)n3C)c1	CEM	ROD	syncytia	>8 µg/mL
NC1=NS(=O)(=O)N(Cc2ccccc2)c2nc(-c3ccc(Cl)cc3)[nH]c21	CEM	ROD	syncytia	>4 µg/mL

Again, the opening 6 rows:

{"smiles": "O=C(CCCN1C(=O)c2ccccc2C1=O)NC(=S)NC(CS)C(=O)O", "cells": "MT-4", "strain or isolate": "ROD", "read by": "MTT", "value": ">90.9 µM"}
{"smiles": "O=C(c1cccc(F)c1)c1ccc2c(c1)sc(=O)n2Cc1ccccc1", "cells": "CEM", "strain or isolate": "ROD", "read by": "syncytia", "value": ">1.6 µg/mL"}
{"smiles": "Cc1ccc(C)c(CS(=O)(=O)c2cccc[n+]2[O-])c1", "cells": "CEM", "strain or isolate": "EHO", "read by": "syncytia", "value": "14 µg/mL"}
{"smiles": "O=C1c2ccccc2N(Cc2ccccc2-c2ccccc2)S(=O)(=O)N1Cc1ccccc1", "cells": "MT-4", "strain or isolate": "ROD", "read by": "p24", "value": ">125 µM"}
{"smiles": "O=C1CCCC(C23CC4CC(C2)CC(N2C(=O)c5ccccc5C2=O)(C4)C3)C1", "cells": "CEM", "strain or isolate": "ROD", "read by": "syncytia", "value": ">4 µg/mL"}
{"smiles": "CC1=C[C@H](Cn2cnc3c(=O)[nH]cnc32)C[C@@H]1CO", "cells": "MT-4", "strain or isolate": "ROD", "read by": "MTT", "value": ">100 µg/mL"}

Blank or dashed fields: not listed here. Neighbouring rows are from separate reports.